A mixed list of measured activities; the numbers were collected in NIAID ChemDB.

Common to all: target-level tests

a–b is a range or a potency band.

CC(C)(C#Cc1ccc(NC(=O)CSc2nnnn2-c2ccc(C3(C)CC3)cc2Cl)c(Cl)c1)C(=O)O ; target: Reverse transcriptase ; method: PicoGreen / fluorescence ; strain: WT ; read-out: IC50 ; agent: HIV-1 ; result: <1 µM
Cc1cn([C@H]2CC[C@@H](COP(=O)(O)OP(=O)(O)OP(=O)(O)O)O2)c(=O)[nH]c1=O ; target: Reverse transcriptase ; method: nucleotide incorporation / radiometric ; mutations: RT-K65R ; read-out: IC50 ; agent: HIV ; result: 0.66 µM
Cc1nnc2c3c(c(N4CCc5ccccc5C4)nn12)C1CCC3CC1 ; target: Reverse transcriptase ; method: RT activity / fluorescence ; strain: 98US_MSC5016 ; read-out: IC50 ; agent: HIV-1 ; result: 5.98 µM
Nc1ccn([C@@H]2CS[C@H](COP(=O)(O)OP(=O)(O)OP(=O)(O)O)O2)c(=O)n1 ; target: Reverse transcriptase ; method: radiometric ; mutations: RT-Q151M ; read-out: Ki ; agent: HIV ; result: 0.203 µM
CN(C)c1ccc(NC(=O)COc2ccc(NC(=O)CSc3nnnn3-c3ccc(C(C)(C)C)cc3Cl)c(Cl)c2)cc1 ; target: Reverse transcriptase ; method: PicoGreen / fluorescence ; strain: WT ; read-out: IC50 ; agent: HIV-1 ; result: <1 µM
CNC(=O)[C@@H](Cc1ccccc1)NP(=O)(O)OC[C@H]1O[C@@H](n2cc(C)c(=O)[nH]c2=O)C[C@@H]1N=[N+]=[N-] ; target: Rev:RRE ; method: fluorescence ; read-out: IC50 ; agent: HIV-1 ; result: 0.35 µM
O=C(/C=C/c1cccn1Cc1ccc(F)cc1)CC(=O)C(=O)O ; target: RNase H ; method: substrate cleavage / fluorescence ; mutations: R448A ; read-out: IC50 ; agent: HIV-1 ; result: 19.3 µM
Nc1ncnc2c1ncn2[C@H]1CC[C@@H](COP(=O)(O)OP(=O)(O)OP(=O)(O)OP(=O)(O)OC[C@@H]2CC[C@H](n3cnc4c(N)ncnc43)O2)O1 ; target: Reverse transcriptase ; method: nucleotide incorporation / radiometric ; mutations: RT-M41L T215Y ; read-out: IC50 ; agent: HIV ; result: 2.9 µM
COc1cc2c(cc1[N+](=O)[O-])CN(c1nn3c(C4CC4)nnc3c3ccccc13)CC2 ; target: Reverse transcriptase ; method: RT activity / fluorescence ; strain: IIIB ; read-out: IC50 ; agent: HIV-1 ; result: 29.8 µM
CC(C)(C)c1ccc(-n2nnnc2SCC(=O)Nc2ccc(NC(=O)c3ccccc3Cl)cc2Cl)c(Cl)c1 ; target: Reverse transcriptase ; method: PicoGreen / fluorescence ; mutations: RT-K103 Y181C ; read-out: IC50 ; agent: HIV-1 ; result: <1 µM
CC[C@H](C)[C@H](NC(=O)[C@@H]1CCCN1C(=O)[C@H](O)[C@H](Cc1ccccc1)NC(=O)[C@H](CO)NC(=O)CCc1ccccc1)C(=O)N[C@H](C(N)=O)C(C)C ; target: Protease ; read-out: IC50 ; agent: HIV-1 ; result: <5 µM
Cc1ccc(-n2nccc2OCC(=O)Nc2ccc(-c3ccc(CC(=O)O)cc3)cc2Cl)c(Cl)c1 ; target: Reverse transcriptase ; method: PicoGreen / fluorescence ; mutations: RT-K103 Y181C ; read-out: IC50 ; agent: HIV-1 ; result: <1 µM
CC(C)(C)C(O)c1cn2ccn(Cc3cccc(Cl)c3)c(=O)c2c(O)c1=O ; target: Integrase ; method: ELISA ; read-out: IC50 ; agent: HIV-1 ; result: 0.01–0.1 µM
CC(C)(C)c1ccc(-n2nnnc2SCC(=O)Nc2ccc(C(=O)NC3CC3)cc2Cl)c(Cl)c1 ; target: Reverse transcriptase ; method: PicoGreen / fluorescence ; strain: WT ; read-out: IC50 ; agent: HIV-1 ; result: <1 µM
CC(C)=CCN1Cc2cccc3[nH]c(=S)n(c23)C[C@@H]1C ; target: Reverse transcriptase ; method: nucleotide incorporation ; mutations: RT-W266S ; read-out: IC50 ; agent: HIV ; result: >100 µM
CC(C)(C)c1ccc(-n2nnnc2SCC(=O)Nc2ccc(NC(=O)c3ccccc3)cc2Cl)c(Cl)c1 ; target: Reverse transcriptase ; method: PicoGreen / fluorescence ; strain: WT ; read-out: IC50 ; agent: HIV-1 ; result: <1 µM
Nc1cc2c(c(N3CCOCC3)c1)CCN(c1nn3c(C4CC4)nnc3c3ccccc13)C2 ; target: Reverse transcriptase ; method: RT activity / fluorescence ; strain: KER2008 ; read-out: IC90 ; agent: HIV-1 ; result: 51.3 µM
CC(C)(C)c1ccc(-n2nnnc2SCC(=O)Nc2ccc(C#CCCCCO)cc2Cl)c(Cl)c1 ; target: Reverse transcriptase ; method: PicoGreen / fluorescence ; mutations: RT-K103 Y181C ; read-out: IC50 ; agent: HIV-1 ; result: <1 µM
CC(C)=CCN1Cc2cccc3[nH]c(=S)n(c23)C[C@@H]1C ; target: Reverse transcriptase ; method: nucleotide incorporation ; read-out: Ki ; agent: HIV ; result: 0.63 µM
CC(C)(C)c1ccc(-n2nnnc2SCC(=O)Nc2ccc(NC(=O)Cc3ccc4ccoc4c3)cc2Cl)c(Cl)c1 ; target: Reverse transcriptase ; method: PicoGreen / fluorescence ; mutations: RT-K103 Y181C ; read-out: IC50 ; agent: HIV-1 ; result: <1 µM
Nc1nc2c(ncn2[C@H]2CC[C@@H](COP(=O)(O)OP(=O)(O)OP(=O)(O)OP(=O)(O)OC[C@H]3O[C@@H](n4cnc5c(N)ncnc54)[C@H](O)[C@@H]3O)O2)c(=O)[nH]1 ; target: Reverse transcriptase ; method: nucleotide incorporation / radiometric ; mutations: RT-M41L T215Y ; read-out: IC50 ; agent: HIV ; result: 1.95 µM
CC[C@@H](C)[C@H](NC(=O)[C@H](CCC(N)=O)NC(=O)[C@@H]1CCCN1C(=O)[C@@H](O)[C@H](Cc1ccccc1)NC(=O)[C@H](CC(N)=O)NC(=O)CCc1ccccc1)C(N)=O ; target: Protease ; read-out: IC50 ; agent: HIV-1 ; result: >5 µM
CC(C)(C)c1ccc(-n2nnnc2SCC(=O)Nc2ccc(OCC(=O)NCc3ccc(C(=O)O)cc3)cc2Cl)c(Cl)c1 ; target: Reverse transcriptase ; method: PicoGreen / fluorescence ; mutations: RT-K103 Y181C ; read-out: IC50 ; agent: HIV-1 ; result: <1 µM
CC(C)[C@H](NC(=O)COc1cccc2cnccc12)C(=O)N[C@@H](Cc1ccccc1)[C@H](O)C(=O)N1CSC[C@H]1C(=O)NC(C)(C)C ; target: Protease ; tested at: 0.05 µM ; read-out: inhibition ; agent: HIV-1 ; result: 88.5%
CCOC(=O)C(=O)CC(=O)/C=C/c1cc(-c2ccccc2)cn1Cc1ccc(F)cc1 ; target: RNase H ; method: substrate cleavage / fluorescence ; mutations: N474A ; read-out: IC50 ; agent: HIV-1 ; result: >100 µM
COc1cc2c(cc1N)CN(c1nn3c(C4CC4)nnc3c3ccccc13)CC2 ; target: Reverse transcriptase ; method: RT activity / fluorescence ; strain: IIIB ; read-out: IC90 ; agent: HIV-1 ; result: 9.25 µM
Nc1nc2c(ncn2[C@H]2CC[C@@H](COP(=O)(O)OP(=O)(O)OP(=O)(O)O)O2)c(=O)[nH]1 ; target: Reverse transcriptase ; method: nucleotide incorporation / radiometric ; mutations: RT-D67N K70R T215Y K219Q ; read-out: fold resistance ; agent: HIV ; result: 0.77
CC(C)(C#Cc1ccc(NC(=O)CSc2nnnn2-c2cc(C(C)(C)C)ccc2Cl)c(Cl)c1)NC(=O)CN1CCNCC1 ; target: Reverse transcriptase ; method: PicoGreen / fluorescence ; mutations: RT-K103 Y181C ; read-out: IC50 ; agent: HIV-1 ; result: <1 µM
CC(C)(C)OC(=O)[C@@H]1CCCN1C(=O)[C@@H](O)[C@H](Cc1ccccc1)NC(=O)[C@H](CC(N)=O)NC(=O)OCc1ccccc1 ; target: Protease ; read-out: IC50 ; agent: HIV-1 ; result: <5 µM
CC(C)(C#Cc1ccc(NC(=O)CSc2nnnn2-c2ccc(C(C)(C)C)cc2Cl)c(Cl)c1)OCC(=O)Nc1ccc(O)cc1 ; target: Reverse transcriptase ; method: PicoGreen / fluorescence ; strain: WT ; read-out: IC50 ; agent: HIV-1 ; result: <1 µM
COc1cccc(Cn2cccc2/C=C/C(=O)CC(=O)C(=O)O)c1 ; target: RNase H ; method: substrate cleavage / fluorescence ; mutations: Y501A ; read-out: IC50 ; agent: HIV-1 ; result: 6.4 µM
Cc1ccc(-n2c(C)cnc2SCC(=O)Nc2ccc(-c3ccc(CC(=O)O)cc3)cc2Cl)c(Cl)c1 ; target: Reverse transcriptase ; method: PicoGreen / fluorescence ; mutations: RT-K103 Y181C ; read-out: IC50 ; agent: HIV-1 ; result: <1 µM
CCOC(=O)C(=O)CC(=O)/C=C/c1cccn1Cc1ccc(C)cc1C ; target: RNase H ; method: substrate cleavage / fluorescence ; tested at: 100 µM ; mutations: N474A ; read-out: inhibition ; agent: HIV-1 ; result: 44%
CC(=O)NNC(=O)COC(C)(C)C#Cc1ccc(NC(=O)CSc2nnnn2-c2ccc(C(C)(C)C)cc2Cl)c(Cl)c1 ; target: Reverse transcriptase ; method: PicoGreen / fluorescence ; mutations: RT-K103 Y181C ; read-out: IC50 ; agent: HIV-1 ; result: <1 µM
CC(C)(C)C(=O)c1cn2c(CO)cn(Cc3ccc(F)c(Cl)c3)c(=O)c2c(O)c1=O ; target: Integrase ; method: ELISA ; read-out: IC50 ; agent: HIV-1 ; result: <0.01 µM
CC[C@H](C)[C@H](NC(=O)[C@@H]1CCCN1C(=O)[C@H](O)[C@H](Cc1ccccc1)NC(=O)[C@H](CO)NC(=O)Cc1ccccc1)C(=O)N[C@H](C(N)=O)C(C)C ; target: Protease ; tested at: 1000 µM ; read-out: inhibition ; agent: HIV-1 ; result: 97.2%
CC(C)(C#Cc1ccc(NC(=O)CSc2nnnn2-c2cc(CC3CC3)ccc2Cl)c(Cl)c1)C(=O)O ; target: Reverse transcriptase ; method: PicoGreen / fluorescence ; mutations: RT-K103 Y181C ; read-out: IC50 ; agent: HIV-1 ; result: <1 µM
Nc1ccn([C@H]2CC[C@@H](COP(=O)(O)OP(=O)(O)OP(=O)(O)OP(=O)(O)OC[C@@H]3CC[C@H](n4ccc(N)nc4=O)O3)O2)c(=O)n1 ; target: Reverse transcriptase ; method: nucleotide incorporation / radiometric ; mutations: RT-D67N K70R T215Y K219Q ; read-out: IC50 ; agent: HIV ; result: 0.18 µM
COc1ccnc2[nH]cc(C(=O)C(=O)N3CCN(C(=O)c4ccccc4)C[C@H]3C)c12 ; target: gp120 ; method: radiometric ; strain: JR-FL ; read-out: Ki ; agent: HIV-1 ; result: 0.0249 µM
CC(C)(C)NC(=O)[C@@H]1CCCN1C(=O)[C@@H](O)[C@H](Cc1ccccc1)NC(=O)[C@H](CC(N)=O)NC(=O)OCc1ccccc1 ; target: Protease ; tested at: 5 µM ; read-out: inhibition ; agent: HIV-1 ; result: 96.5%
Cn1ncnc1-c1cn2c(c(O)c1=O)C(=O)N(Cc1ccc(F)c(Cl)c1)CC2 ; target: Integrase ; method: ELISA ; read-out: IC50 ; agent: HIV-1 ; result: <0.01 µM
Cc1ccc(Cn2cccc2/C=C/C(=O)CC(=O)C(=O)O)c(C)c1 ; target: RNase H ; method: substrate cleavage / fluorescence ; mutations: R557A ; read-out: IC50 ; agent: HIV-1 ; result: 58 µM
CCCC[C@H](NC(=O)[C@H](C)NC(=O)[C@H](CCC(=O)O)NC[C@H](Cc1ccccc1)NC(=O)[C@H](CC(C)C)NC(=O)[C@@H](NC(=O)[C@@H](N)CCCN=C(N)N)C(C)C)C(N)=O ; target: Protease ; method: HPLC ; mutations: PR-L90M ; read-out: IC50 ; agent: HIV ; result: <0.075 µM
CC(C)(C)C(=O)c1cn2ccn(CCCc3c(F)cccc3Cl)c(=O)c2c(O)c1=O ; target: Integrase ; method: ELISA ; read-out: IC50 ; agent: HIV-1 ; result: <0.01 µM
Cc1nnc2c3ccccc3c(N3CCC4CCCCC4C3)nn12 ; target: Reverse transcriptase ; method: RT activity / fluorescence ; strain: 98US_MSC5016 ; read-out: IC90 ; agent: HIV-1 ; result: 31.1 µM
CC(C)(C)c1ccc(-n2nnnc2SCC(=O)Nc2ccc(C(=O)NCCc3ccc(O)cc3)cc2Cl)c(Cl)c1 ; target: Reverse transcriptase ; method: PicoGreen / fluorescence ; mutations: RT-K103 Y181C ; read-out: IC50 ; agent: HIV-1 ; result: <1 µM
c1csc(-c2nnc3c4ccccc4c(N4CCc5ccccc5C4)nn23)c1 ; target: Reverse transcriptase ; method: RT activity / fluorescence ; strain: 98US_MSC5016 ; read-out: IC90 ; agent: HIV-1 ; result: >100 µM
CC(C)(N)C#Cc1ccc(NC(=O)CSc2nnnn2-c2cc(Br)ccc2Cl)c(Cl)c1 ; target: Reverse transcriptase ; method: PicoGreen / fluorescence ; mutations: RT-K103 Y181C ; read-out: IC50 ; agent: HIV-1 ; result: <1 µM

Again, the opening 5 rows:

SMILES,target,method,tested at,mutations,strain,read-out,agent,result
CC(C)(C#Cc1ccc(NC(=O)CSc2nnnn2-c2ccc(C3(C)CC3)cc2Cl)c(Cl)c1)C(=O)O,Reverse transcriptase,PicoGreen / fluorescence,,,WT,IC50,HIV-1,<1 µM
Cc1cn([C@H]2CC[C@@H](COP(=O)(O)OP(=O)(O)OP(=O)(O)O)O2)c(=O)[nH]c1=O,Reverse transcriptase,nucleotide incorporation / radiometric,,RT-K65R,,IC50,HIV,0.66 µM
Cc1nnc2c3c(c(N4CCc5ccccc5C4)nn12)C1CCC3CC1,Reverse transcriptase,RT activity / fluorescence,,,98US_MSC5016,IC50,HIV-1,5.98 µM
Nc1ccn([C@@H]2CS[C@H](COP(=O)(O)OP(=O)(O)OP(=O)(O)O)O2)c(=O)n1,Reverse transcriptase,radiometric,,RT-Q151M,,Ki,HIV,0.203 µM
CN(C)c1ccc(NC(=O)COc2ccc(NC(=O)CSc3nnnn3-c3ccc(C(C)(C)C)cc3Cl)c(Cl)c2)cc1,Reverse transcriptase,PicoGreen / fluorescence,,,WT,IC50,HIV-1,<1 µM

Conditions beyond the fields shown may differ between rows. An empty or dashed field is not shown. Fold resistance has wild type as its base. ICn is the concentration giving n% inhibition. Inhibition is in % at the dose shown (toxicity tests: loss of growth or viability).